A mixed list of measured activities; the numbers were collected in NIAID ChemDB.

All rows: whole-cell or culture tests; agent: HIV-2; strain: ROD; read by: MTT; read-out: EC50

An empty or dashed field is not shown. ECn: concentration that inhibits the pathogen or its effect by n%. Rows are shuffled and stem from different studies.

SMILES,cells,value
COc1ccc(S(=O)(=O)Nc2nnc(C(CC(C)C)NS(=O)(=O)c3ccc(C)cc3)s2)cc1,MT-4,>61.05 µM
COc1ccc(Nc2nnc(C(NS(=O)(=O)c3ccc(C)cc3)C(C)C)s2)cc1,MT-4,>16.99 µM
CC(C)[C@H](NC(=O)c1ccccc1)C(=O)N/N=C/c1c(F)cccc1Cl,MT-4,>332 µM
O=C1/C(=C\c2ccc(SC3=CC=C3)cc2)N(CCc2cccs2)C(=S)N1CCc1cccs1,MT-4,102 µg/mL
COc1ccc2nc(Nc3nc(Nc4ccc(C#N)cc4)nc(Oc4cc(=O)n(C)c5ccccc45)n3)sc2c1,,>72.13 µg/mL
COc1ccc(N(C)C(=O)[C@H](Cc2cc(F)cc(F)c2)NC(=O)CN2CCN(S(=O)(=O)c3cccc(Br)c3)CC2=O)cc1,MT-4,0.35 µM
Cc1cc(Br)cc(C)c1Oc1ncc([N+](=O)[O-])c(Nc2ccc(C#N)cc2)n1,MT-4,>202.3 µM
Cn1c(Cl)c(N=Nc2ccc(Cl)cc2)c(N)nc1=O,MT-4,>2.15 µM
C#Cc1ccc(Nc2nccc(Oc3c(C)cc(-c4cn(CCc5cccs5)nn4)cc3C)n2)cc1,MT-4,>5.53 µM
CSC(=Nc1ccc(F)cc1)Nn1c(C)nc2ccccc2c1=O,MT-4,2.84 µg/mL
COC(=O)C(CS)NC(=O)CCCN1C(=O)c2ccccc2C1=O,MT-4,>60.33 µM
COc1ccc(N(C)C(=O)[C@H](Cc2cc(F)cc(F)c2)NC(=O)CN2CCN(S(=O)(=O)c3ccc(N)cc3)CC2=O)cc1,MT-4,0.05 µM
C#Cc1ccc(Nc2nccc(Oc3c(C)cc(-c4cn(Cc5ccc(C(=O)OC)cc5)nn4)cc3C)n2)cc1,MT-4,>128 µM
CC(C)C(NS(=O)(=O)c1ccc(Cl)cc1)c1nnc(Nc2ccc(Br)cc2)s1,MT-4,>4.98 µM
CC1=C(C(=O)Nc2cccc([N+](=O)[O-])c2)C2=NN=C(N)C2C(=O)N1,MT-4,101 µg/mL
O=C(Cl)CCCN1C(=O)c2ccccc2C1=O,MT-4,>52.8 µM
O=C1/C(=C\c2ccccc2)N(CCc2cccs2)C(=S)N1CCc1cccs1,MT-4,>59.38 µg/mL
CC(=O)Nc1cnc(Oc2c(Cl)cccc2Cl)nc1Nc1ccc(C#N)cc1,MT-4,>193 µM
CCOC(=O)CNc1nc(NC(=O)Nc2ccc(OC)cc2)nc(Oc2cc(=O)oc3ccccc23)n1,MT-4,>85.9 µg/mL
Cn1c(=O)cc(Oc2nc(Nc3ccc(C#N)cc3)nc(Oc3cc(=O)n(C)c4ccccc34)n2)c2ccccc21,,>79.48 µg/mL
COC(=O)C1CCCN1C(=O)CCCN1C(=O)c2ccccc2C1=O,MT-4,>101.9 µM
Cc1ccc(S(=O)(=O)Nc2nnc(C(C)NS(=O)(=O)c3ccc(Cl)cc3)s2)cc1,MT-4,>60.53 µM
Cn1c(N2CCOCC2)c(N=Nc2ccc(-c3ccc(F)cc3)cc2)c(N)nc1=O,MT-4,>88.71 µM
CSC(=Nc1ccc(Br)cc1)Nn1c(C)nc2ccccc2c1=O,MT-4,2.66 µg/mL
Clc1ccc(-c2nnc3sc(-c4cccnc4)nn23)cc1Cl,MT-4,>80.05 µg/mL
COc1ccc(CCNc2nc(NC(=S)Nc3ccc4ccccc4c3)nc(Oc3cc(=O)oc4ccccc34)n2)cc1OC,MT-4,>54.6 µg/mL
COC(=O)C(NC(=O)CCCN1C(=O)c2ccccc2C1=O)C(C)O,MT-4,>37.82 µM
COc1ccc(N(C)C(=O)[C@H](Cc2cc(F)cc(F)c2)NC(=O)CN2CCN(S(=O)(=O)c3ccccc3)CC2=O)cc1,MT-4,0.1 µM
CCOC(=O)CNc1nc(NC(=O)Nc2ccc(Cl)cc2)nc(Oc2cc(=O)oc3ccccc23)n1,MT-4,>125 µg/mL
Cc1ccc(S(=O)(=O)NC(c2nnc(Nc3ccc(F)cc3)s2)C(C)C)cc1,MT-4,>9.5 µM
Cn1c(=O)cc(Oc2nc(Nc3ccc(C#N)cc3)nc(Nc3nc4ccc([N+](=O)[O-])cc4s3)n2)c2ccccc21,,>69.28 µg/mL
Nc1cc(O)ccc1-c1nnc2sc(-c3cc4ccccc4oc3=O)nn12,MT-4,>108.3 µg/mL
COc1ccc(Nc2nnc(C(Cc3ccccc3)NS(=O)(=O)c3ccc(C)cc3)s2)cc1,MT-4,>63.55 µM
CN=C(Nn1c(C)nc2ccccc2c1=O)SC,MT-4,100 µg/mL
Clc1ccc(-c2nnc3sc(-c4cnccn4)nn23)cc1Cl,MT-4,>2.11 µg/mL
CSC(=Nc1ccc(Cl)cc1)Nn1c(C)nc2ccccc2c1=O,MT-4,1.93 µg/mL
CC(C)[C@@H](NC(=O)c1ccccc1)C(=O)N/N=C/c1c(F)cccc1Cl,MT-4,>332 µM
COc1ccc(S(=O)(=O)NC(c2nnc(Nc3ccc(F)cc3)s2)C(C)C)cc1,MT-4,>9.34 µM
Cn1c(N(Cc2ccccc2)Cc2ccccc2)c(N=Nc2ccc(Cl)cc2)c(N)nc1=O,MT-4,>78.59 µM
Clc1ccc(-c2nnc3sc(-c4ccc[nH]4)nn23)cc1Cl,MT-4,>68.48 µg/mL
O=C(CCCN1C(=O)c2ccccc2C1=O)NC(=S)NC(CS)C(=O)O,MT-4,>90.9 µM
Cc1ccnc2c1NC(=O)c1cccnc1N2C1CC1,MT-4,4 µM
CCOC(=O)CNc1nc(NC(=O)Nc2cccc(Cl)c2)nc(Oc2cc(=O)oc3ccccc23)n1,MT-4,>125 µg/mL
Cc1cc(C)c(Oc2ncc(N)c(Nc3ccc(C#N)cc3)n2)c(C)c1,MT-4,>10 µM
Oc1ccc(-c2nnc3sc(-c4cccnc4)nn23)c(Cl)c1Cl,MT-4,>80.05 µg/mL
Cn1c(N2CCOCC2)c(N=Nc2ccc(Cl)cc2)c(N)nc1=O,MT-4,>12.22 µM
COC(=O)C(CC(C)C)NC(=O)CCCN1C(=O)c2ccccc2C1=O,MT-4,>10.89 µM
Cc1cc(C=O)cc(C)c1Oc1ncc(N)c(Nc2ccc(C#N)cc2)n1,MT-4,>34 µM
COc1ccc(CCNc2nc(NC(=O)Nc3ccc(Br)cc3)nc(Oc3cc(=O)oc4ccccc34)n2)cc1OC,MT-4,>47.63 µg/mL
CC(C)[C@@H](NC(=O)c1ccccc1)C(=O)N/N=C/c1ccccc1F,MT-4,>366 µM
Cn1c(=O)cc(Oc2nc(Nc3ccc(C#N)cc3)nc(Nc3nc4ccccc4s3)n2)c2ccccc21,,>82.93 µg/mL
CC(NS(=O)(=O)c1ccc(Cl)cc1)c1nnc(Nc2ccc(F)cc2)s1,MT-4,>6.85 µM
COc1ccc(N(C)C(=O)[C@H](Cc2cc(F)cc(F)c2)NC(=O)CN2CCN(S(=O)(=O)c3ccc([N+](=O)[O-])cc3)CC2=O)cc1,MT-4,0.48 µM
COc1ccc(CCNc2nc(NC(=S)Nc3ccccc3C)nc(Oc3cc(=O)oc4ccccc34)n2)cc1OC,MT-4,>20.03 µg/mL
COc1ccc(N(C)C(=O)[C@H](Cc2cc(F)cc(F)c2)NC(=O)CN2CCN(S(=O)(=O)c3cccc(C)c3)CC2=O)cc1,MT-4,0.12 µM
COc1ccc(-c2ccc(N=Nc3c(N)nc(=O)n(C)c3N(Cc3ccccc3)Cc3ccccc3)cc2)cc1OC,MT-4,>2.29 µM
CCOC(=O)CNc1nc(NC(=O)Nc2ccccc2OC)nc(Oc2cc(=O)oc3ccccc23)n1,MT-4,>125 µg/mL
CC(C)C(NS(=O)(=O)c1ccc(Cl)cc1)c1nnc(Nc2ccc(F)cc2)s1,MT-4,>8.81 µM
CSCCC(NC(=S)NC(=O)CCCN1C(=O)c2ccccc2C1=O)C(=O)O,MT-4,>78.22 µM
COc1ccccc1NC(=O)C1=C(C)NC(=O)C2C(N)=NN=C12,MT-4,100 µg/mL
COc1cc(-c2nnc(Sc3nc(Nc4ccc(C#N)cc4)nc(Oc4cc(=O)n(C)c5ccccc45)n3)o2)cc(OC)c1OC,,>65.13 µg/mL
CSC(=NCc1ccccc1)Nn1c(C)nc2ccccc2c1=O,MT-4,50.32 µg/mL
Cc1ccc(S(=O)(=O)NC(CC(C)C)c2nnc(N(S(=O)(=O)c3ccc(Cl)cc3)S(=O)(=O)c3ccc(Cl)cc3)s2)cc1,MT-4,>4.09 µM
COc1ccc(N(C)C(=O)[C@H](Cc2cc(F)cc(F)c2)NC(=O)CN2CCN(S(=O)(=O)c3cccc(NC(C)=O)c3)CC2=O)cc1,MT-4,0.03 µM
Cc1ccnc2c1NC(=O)c1cccnc1N2C1CC1,MT-4,>15 µM

A second listing of 7 rows from above:

{"SMILES": "CSC(=Nc1ccc(Cl)cc1)Nn1c(C)nc2ccccc2c1=O", "cells": "MT-4", "value": "1.93 µg/mL"}
{"SMILES": "COc1ccc(N(C)C(=O)[C@H](Cc2cc(F)cc(F)c2)NC(=O)CN2CCN(S(=O)(=O)c3ccccc3)CC2=O)cc1", "cells": "MT-4", "value": "0.1 µM"}
{"SMILES": "COc1ccc(S(=O)(=O)Nc2nnc(C(CC(C)C)NS(=O)(=O)c3ccc(C)cc3)s2)cc1", "cells": "MT-4", "value": ">61.05 µM"}
{"SMILES": "Cn1c(=O)cc(Oc2nc(Nc3ccc(C#N)cc3)nc(Nc3nc4ccc([N+](=O)[O-])cc4s3)n2)c2ccccc21", "value": ">69.28 µg/mL"}
{"SMILES": "COc1ccc(-c2ccc(N=Nc3c(N)nc(=O)n(C)c3N(Cc3ccccc3)Cc3ccccc3)cc2)cc1OC", "cells": "MT-4", "value": ">2.29 µM"}
{"SMILES": "COc1ccccc1NC(=O)C1=C(C)NC(=O)C2C(N)=NN=C12", "cells": "MT-4", "value": "100 µg/mL"}
{"SMILES": "CC(NS(=O)(=O)c1ccc(Cl)cc1)c1nnc(Nc2ccc(F)cc2)s1", "cells": "MT-4", "value": ">6.85 µM"}